# Data published in PubChem BioAssay AID1619 (SRMLSC, 2009).
# Sequences of proteins named here, by UniProt entry; tags and fusion partners are left off.
# UniProt Q8IL11, whole entry: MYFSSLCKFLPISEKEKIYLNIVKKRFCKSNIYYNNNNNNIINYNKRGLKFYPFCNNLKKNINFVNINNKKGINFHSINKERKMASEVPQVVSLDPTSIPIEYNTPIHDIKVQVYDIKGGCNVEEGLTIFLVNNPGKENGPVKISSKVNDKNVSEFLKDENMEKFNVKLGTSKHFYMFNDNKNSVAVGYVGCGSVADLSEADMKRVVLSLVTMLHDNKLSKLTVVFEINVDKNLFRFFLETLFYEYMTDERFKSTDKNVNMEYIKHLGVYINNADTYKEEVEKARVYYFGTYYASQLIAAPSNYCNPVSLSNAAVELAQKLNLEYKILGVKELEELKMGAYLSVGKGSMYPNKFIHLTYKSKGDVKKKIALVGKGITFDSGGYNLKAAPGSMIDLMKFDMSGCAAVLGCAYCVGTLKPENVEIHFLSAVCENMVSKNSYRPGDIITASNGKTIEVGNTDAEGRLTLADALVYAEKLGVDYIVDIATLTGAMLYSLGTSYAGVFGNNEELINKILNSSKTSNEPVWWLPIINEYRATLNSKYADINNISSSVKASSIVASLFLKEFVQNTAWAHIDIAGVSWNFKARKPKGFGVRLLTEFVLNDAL
# The list shows a part of the results. Measured potencies and affinities stand elsewhere. Some salts and complexes are drawn in separate pieces, as the source files them; their charges need not balance. Calls of active or inactive are those of the source.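 How the source made its calls: active means compound inhibiting the enzyme by more than half at any dose during confirmatory dose-response retesting; inconclusive means strong single-dose inhibitors picked by rank but not retested; inactive means the rest.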
# Target: Leucine aminopeptidase (Plasmodium falciparum (isolate 3D7)) (UniProt Q8IL11)
# Test: P. falciparum M17LAP inhibitors, primary screen, biochemical, fluorogenic H-Leu-NHMec substrate, 1536-well (AID 1619);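 further: plate controls were full reaction with DMSO carrier for no effect and no enzyme background for full effect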
# Conditions: recombinant M17LAP, H-Leu-NHMec fluorogenic kinetic assay; at 30 µM; stronger effect = higher value
row,Structure (SMILES),inhibition
1,CCc1ccc(OP(C)(=O)O)cc1,inactive: 12.8%
2,CP(=O)(Nc1ccccn1)Oc1ccccc1 (stereo not given),inactive: -4.03%
3,COc1ccccc1OP(C)(=O)Nc1ccc(C)cc1C (stereo not given),inactive: 11%
4,Cc1c(NP(C)(=O)Oc2ccc(C(C)C)cc2)c(=O)n(-c2ccccc2)n1C (stereo not given),inactive: 0.52%
5,O=[N+]([O-])c1cc([N+](=O)[O-])c(Nc2ccccn2)c([N+](=O)[O-])c1,inactive: 38.3%
6,CN(C)CCOC(=O)C(O)(c1ccccc1)C1CCCC1 (stereo not given),inactive: -8.5%
7,COc1ccc(OP(C)(=O)Nc2ccccn2)cc1 (stereo not given),inactive: -1.73%
8,COc1ccccc1OP(C)(=O)Nc1ccc(Br)cc1 (stereo not given),inactive: -6.69%
9,CP(=O)(Nc1ccc(Cl)cc1Cl)Oc1ccccc1 (stereo not given),inactive: 0.45%
10,CP(=O)(OCCOc1ccccc1)OCCOc1ccccc1,inactive: -6.89%
11,Cc1nc2ccc3ccccc3c2o1.O=[N+]([O-])c1cc([N+](=O)[O-])c(O)c([N+](=O)[O-])c1,inactive: -23.3%
12,COc1ccc(OP(C)(=O)Nc2ccccc2Br)cc1 (stereo not given),inactive: 4.35%
13,COc1ccccc1OP(C)(=O)Nc1ccc(C)c(C)c1 (stereo not given),inactive: -3.88%
14,Cc1cc(C)cc(OP(C)(=O)Nc2cccc(C(F)(F)F)c2)c1 (stereo not given),inactive: 21.6%
15,CP(=O)(OC12CC3CC(CC(C3)C1)C2)OC12CC3CC(CC(C3)C1)C2,inactive: 0.63%
16,CCOC(=O)c1ccc(NP(C)(=O)Oc2ccc(Cl)cc2)cc1 (stereo not given),inactive: 2.04%
17,CN(C)C(=O)c1c([N+](=O)[O-])cc([N+](=O)[O-])cc1[N+](=O)[O-],inactive: 5.55%
18,CP(=O)(Nc1ccc(Cl)cc1)Oc1ccc(F)cc1 (stereo not given),inactive: 8.71%
19,COc1ccccc1OP(C)(=O)Nc1ccccc1Br (stereo not given),inactive: 2.25%
20,CC(C)(C)c1ccc(OP(C)(=O)O)cc1,inactive: 4.29%

row,Structure (SMILES),inhibition
1,CP(=O)(Oc1ccccc1)N1CCOC1=O (stereo not given),inactive: -6.17%
2,CCc1ccc(OP(C)(=O)Nc2cccnc2)cc1 (stereo not given),inactive: 20.8%
3,O=C(OCCCN1CCCC1)C(O)(c1ccccc1)C1CCCCC1 (stereo not given),inactive: 24.9%
4,CCN(CC)CC(O)COC(=O)C(O)(c1ccccc1)C1CCCCC1 (stereo not given),inactive: 1.93%
5,COc1ccc(OP(C)(=O)Nc2ccc(Br)cc2)cc1 (stereo not given),inactive: -15.2%
6,Cc1ccccc1NP(C)(=O)Nc1ccccc1C,inactive: 7.21%
7,CP(=O)(Nc1ccc2c(c1)OCCO2)Oc1ccccc1 (stereo not given),inactive: -7.29%
8,CCOP(C)(=S)SCC(=O)NC(C)(CC)C(=O)O (stereo not given),inactive: 13.7%
9,CP(=O)(Nc1ccc(SC(F)(F)F)cc1)Oc1ccc(F)cc1 (stereo not given),inactive: 10.5%
10,Cc1cc(-c2cccc3ccccc23)c(C)cn1.O=[N+]([O-])c1cc([N+](=O)[O-])c(O)c([N+](=O)[O-])c1,inactive: 10.8%
11,O=[N+]([O-])c1cc([N+](=O)[O-])c(NCC2CCS(=O)(=O)C2)c([N+](=O)[O-])c1 (stereo not given),inactive: 5.17%
12,O=[N+]([O-])c1ccc(OP2(=O)COCCO2)cc1 (stereo not given),inactive: 3.43%
13,COc1ccc(NP(C)(=O)Oc2ccccc2OC)cc1 (stereo not given),inactive: -6.04%
14,CN(C)CCOC(=O)C(O)(c1ccccc1)C1CCCCC1 (stereo not given),inactive: -0.93%
15,COc1ccc(OP(C)(=O)Nc2cccc(Br)c2)cc1 (stereo not given),inactive: 7.33%
16,CCCCCOc1ccc(NP(C)(=O)Oc2ccc(Cl)cc2Cl)cc1 (stereo not given),inactive: -1.95%
17,CP(=O)(Nc1ccccc1)Oc1ccc(F)cc1 (stereo not given),inactive: 0.41%
18,CCN(CC)CCCOC(=O)C(O)(c1ccccc1)C1CCCCC1 (stereo not given),inactive: 9.89%
19,COc1ccc(OP(C)(=O)Nc2ccc(SC(F)(F)F)cc2)cc1 (stereo not given),inactive: -1.15%
20,CCOC(=O)c1ccc(NP(C)(=O)Oc2ccc(F)cc2)cc1 (stereo not given),inactive: 6.49%

row,Structure (SMILES),inhibition
1,COc1ccc2c(c1O)-c1c(O)c(OC)cc3c1[C@H](C2)[N+](C)(C)CC3.O=[N+]([O-])c1cc([N+](=O)[O-])c([O-])c([N+](=O)[O-])c1[O-],inactive: -9.94%
2,O=C(OCCN1CCN(CCOCc2ccccc2)CC1)C(O)(c1ccccc1)c1ccccc1,inactive: 3.73%
3,O=C(OC1CN2CCC1CC2)c1ccc([N+](=O)[O-])cc1 (stereo not given),inactive: -4.27%
4,CC(C)c1ccc(OP(C)(=O)Nc2ccc(SC(F)(F)F)cc2)cc1 (stereo not given),inactive: 3.13%
5,CP(=O)(Nc1ccccc1F)Oc1ccccc1 (stereo not given),inactive: -6.39%
6,Cc1cc(C)cc(OP(C)(=O)Nc2ccccn2)c1 (stereo not given),inactive: 15.1%
7,CP(=O)(Nc1cccc(Br)c1)Oc1ccccc1 (stereo not given),inactive: -2.39%
8,Cc1ccc(C)c(NP(C)(=O)Oc2ccccc2)c1 (stereo not given),inactive: 6.63%
9,Cc1cc(C)cc(OP(C)(=O)Nc2ccc(C)cc2C)c1 (stereo not given),inactive: -4.55%
10,CCOC(=O)c1ccc(NP(C)(=O)Oc2cc(C)cc(C)c2)cc1 (stereo not given),inactive: 24.2%
11,COc1ccccc1OP(C)(=O)Nc1cccc(Br)c1 (stereo not given),inactive: -5.12%
12,CC1=NCCc2c1[nH]c1ccccc21.O=[N+]([O-])c1cc([N+](=O)[O-])c(O)c([N+](=O)[O-])c1,inactive: 4.47%
13,O=C(O)c1cccc(Nc2c([N+](=O)[O-])cc([N+](=O)[O-])cc2[N+](=O)[O-])c1,inactive: -14.8%
14,CCCOc1ccc(NP(C)(=O)Oc2ccc(Cl)cc2)cc1 (stereo not given),inactive: 39.8%
15,CP(=O)(Nc1ccc(SC(F)(F)F)cc1)Oc1ccccc1 (stereo not given),inactive: -10.7%
16,COc1ccccc1OP(C)(=O)Nc1c(C)cccc1C (stereo not given),inactive: -2.04%
17,CN1CCCCC1COC(=O)C1(O)c2ccccc2CCc2ccccc21 (stereo not given),inactive: -1.72%
18,O=[N+]([O-])c1cc([N+](=O)[O-])c(Nc2nnnn2CCO)c([N+](=O)[O-])c1,inactive: 1.67%
19,CCOC(=O)C(CC)C1=NC(C)(C)Cc2ccccc21.O=[N+]([O-])c1cc([N+](=O)[O-])c(O)c([N+](=O)[O-])c1 (stereo not given),inactive: 16.6%
20,Cc1nc2ccc3ccccc3c2s1.O=[N+]([O-])c1cc([N+](=O)[O-])c(O)c([N+](=O)[O-])c1,inactive: -17.4%
